Data from the CheMixHub ionic liquid set.

Experiment: xn = mol fraction of the nth substance listed
Details: 100 kPa

O=S(=O)(F)[N-]S(=O)(=O)F.[Li+] + CC[n+]1ccn(C)c1.O=S(=O)(F)[N-]S(=O)(=O)F
Details	electrical conductivity [S/m]	viscosity [mPa·s]
268 K, x1 = 0.2	0.3	–
278 K, x1 = 0.3	0.31	129.3
288 K, x1 = 0.2	0.72	54.5
308 K, x1 = 0.2	1.35	26
308 K, x1 = 0.3	0.99	36.7
308 K, x1 = 0.4	0.66	57.5
318 K, x1 = 0.3	1.32	26.7
338 K, x1 = 0.4	1.51	21.8
348 K, x1 = 0.4	1.87	16.7
